# Laboratory results as given in patent publication US11696914B1 (priority 2019, dated 2023).
# Assays:
# Assay type in all cases: cell-based
# Conditions in all cases: ratio CC50 / IC50
# [1] = tested on: Ebola virus/H.sapiens-tc/GIN/2014/Makona-005 (EBOV/Mak)
# [2] = tested on: Ebola virus/H.sapiens-tc/COD/1976/Yambuku-Mayinga (EBOV/May)
# [3] = tested on: Marburg virus/H.sapiens-tc/KEN/1980/Mt. Elgon-Musoke (MARV/Mus)
smiles,measurement,setting,value
"COc1ccc2nc3cc(Cl)ccc3c(Nc3cc(CN4CCCC4)c(O)c(CN4CCCC4)c3)c2n1 [Pyronaridine, 4-[(7-Chloro-2-methoxybenzo[b][1,5]naph-thyridin-10-yl)amino]-2,6-bis(1-pyrrolidinylmethyl)phenol phosphate (1:4)]",SI,[1],5.0
same,SI,[2],4.1
same,SI,[3],4.1
CCN(CC)CCCC(C)Nc1c2ccc(Cl)cc2nc2ccc(OC)cc12 (stereo not drawn) [Quinacrine],SI,[1],8.2
same,SI,[2],5.8
same,SI,[3],5.5
CCN(CC)CCOc1ccc2c(c1)C(=O)c1cc(OCCN(CC)CC)ccc1-2 [Tilorone],SI,[1],15.9
same,SI,[2],15.0
same,SI,[3],8.8
